Measurements taken from patent publication US8674118B2, “Compounds and methods for the treatment or prevention of flavivirus infections” (priority 2005, dated 2014).
Some compounds may have been tested in ways that are not shown here.

System: HCV RNA replication (replicon cell lines Huh-7, 5.2 and ET)
Assay: Cell-Based Luciferase Reporter HCV RNA Replication Assay
Details: Huh-7, 5.2 or ET replicon cells, luciferase counts after 4 days incubation

Row | Compound | IC50
1 | CC1CCC(C(=O)N(c2cc(C3=CCCCC3)sc2C(=O)O)C2CCN(Cc3cccnc3)CC2)CC1 (stereo not shown) | < 5 µM
2 | C[C@H]1CC[C@H](C(=O)N(c2cc(C3=CCCCC3)sc2C(=O)O)C2CCN(CCF)CC2)CC1 (relative stereo) | < 5 µM
3 | CN1CCC(N(c2cc(C3=CCCCC3)sc2C(=O)O)C(=O)[C@H]2CC[C@H](C)CC2)CC1 (relative stereo) | < 5 µM
4 | CC1CCC(C(=O)N(c2cc(C3CCC(C)(C)CC3)sc2C(=O)O)C2CCN(C)CC2)CC1 (stereo not shown) | < 5 µM
